Target: Neuraminidase (Influenza A virus (strain A/Tern/Australia/G70C/1975 H11N9), UniProt P03472)
Experiment: ASSAY_NAME: Neuraminidase Inhibition Assay DESCRIPTION: A standard fluorimetric assay was used to measure influenza virus neuraminidase activity. The substrate 2 -(4-methylumbelliferyl)-alpha-D-acetylneuraminic acid is cleaved by neuraminidase to yield a fluorescent product that can be quantified. Fluorescence was read using an Aminco-Bowman fluorescence spectrophotometer (excitation, 360 nm; emis
Details: pH 6.5

Row | SMILES | IC50
1 | CNC(=O)c1ccc(C(=O)O)cc1NC(=N)N | 5 µM
2 | NC(N)=Nc1cc(C(=O)O)ccc1S(N)(=O)=O | 9 µM
3 | CC(=O)Nc1ccc(C(=O)O)cc1CN=O | 5500 µM
4 | NC(N)=Nc1cc(N=C(N)N)cc(C(=O)O)c1 | 1500 µM
5 | NS(=O)(=O)c1ccc(C(=O)O)cc1 | 2500 µM
6 | NC(N)=Nc1cccc(C(=O)O)c1 | 5000 µM
7 | CC(=O)Nc1ccc(C(=O)O)cc1CC[N+](=O)[O-] | 2500 µM
8 | C[S+]([O-])Cc1ccc(C(=O)O)cc1N=C(N)N (stereo not given) | 140 µM
9 | N#CNc1cccc(C(=O)O)c1 | 4000 µM
10 | N=C(N)Nc1cc(N)cc(C(=O)O)c1 | 2000 µM
11 | CC(C)C(=O)Nc1ccc(C(=O)O)cc1N=C(N)N | 1000 µM
12 | CS(=O)(=O)Nc1ccc(C(=O)O)cc1NC(=N)N | 100 µM
13 | O=C(O)c1ccc(NC(=O)c2ccccc2)cc1 | 1500 µM
14 | NC(N)=Nc1cc(CN=O)cc(C(=O)O)c1 | 500 µM
15 | CS(=O)(=O)Cc1ccc(C(=O)O)cc1NC(=N)N | 300 µM
